Data as given in PubChem BioAssay AID624099 (ICCB-Longwood, 2012)
Aim: 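Host factors E2 relies on to silence an HPV18 LCR reporter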 (primary screen). Cells: human C33A cervical carcinoma cells (HPV-negative) stably expressing BPV1 E2 and an HPV18 LCR luciferase reporter. Reagents: siRNA pool against human genes, 40 nM. Duration: 72 h. Read-out: 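Per-well luciferase luminescence, z-scored on each plate against the plate mean and SD with control wells left out, then averaged across three replicate plates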. Direction: mean z-score and z-score: higher = stronger reporter signal, weaker E2 silencing. Active means: 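Hit if mean z-score reaches 2 and two or more of three replicate z-scores also reach 2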.
In all, the deposit lists about 21,000 reagents; shown is an unselected part. 497 of them (2.4%) count as active. 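Higher z means weaker E2 silencing; only reporter increases were scored, and knock-downs that hurt cell survival may mask genuine repressor factors.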 The numbers tell different reagents against one gene apart.

target gene | reagent no. | mean z-score | z-score, replicate A | z-score, replicate B | z-score, replicate C | Call
DBN1 | 1 | -0.02 | 0.06 | -0.16 | 0.03 | inactive
GLTPD2 | 1 | 1.21 | 1.1 | 1.47 | 1.05 | inactive
PDE1B | 1 | 0.25 | 0.02 | 0.33 | 0.41 | inactive
LOC401441 (retired record) | 1 | 0.64 | 0.51 | 0.41 | 1.01 | inactive
MT-ND3 | 1 | -1.67 | -1.53 | -1.79 | -1.69 | inactive
RPL23AP14 | 1 | -0.21 | -0.07 | -0.18 | -0.39 | inactive
CD151 | 1 | 0.55 | 0.85 | 0.54 | 0.26 | inactive
GALNT12 | 1 | -0.24 | -0.58 | -0.42 | 0.29 | inactive
KCNA6 | 1 | 1.63 | 1.47 | 1.48 | 1.93 | inactive
TMEM132A | 1 | 1.07 | 1.22 | 1.44 | 0.55 | inactive
DSCAML1 | 1 | 1.28 | 1.11 | 1.32 | 1.42 | inactive
GLIS1 | 1 | -0.69 | -1.34 | -0.53 | -0.2 | inactive
FTSJ1 | 1 | -1.39 | -1.37 | -1.48 | -1.31 | inactive

Continued; the last 3 above are carried over.
target gene | reagent no. | mean z-score | z-score, replicate A | z-score, replicate B | z-score, replicate C | Call
DSCAML1 | 1 | 1.28 | 1.11 | 1.32 | 1.42 | inactive
GLIS1 | 1 | -0.69 | -1.34 | -0.53 | -0.2 | inactive
FTSJ1 | 1 | -1.39 | -1.37 | -1.48 | -1.31 | inactive
TMC7 | 1 | -1.48 | -1.73 | -1.61 | -1.09 | inactive
PSMC1 | 1 | -2.42 | -2.51 | -2.55 | -2.19 | inactive
EXOSC2 | 1 | -0.86 | -0.97 | -0.74 | -0.87 | inactive
LGALS3 | 1 | 1.62 | 1.39 | 1.54 | 1.94 | inactive
LGALS3 | 2 | 0.98 | 0.85 | 1.1 | 1 | inactive
ADAMTS19 | 1 | -0.55 | -0.4 | -0.48 | -0.77 | inactive
NOBOX | 1 | 0.6 | 0.8 | 0.55 | 0.46 | inactive
NOBOX | 2 | 0.05 | 0.19 | -0.25 | 0.22 | inactive
GLT1D1 | 1 | -0.11 | 0.31 | -0.19 | -0.44 | inactive
MORF4L1 | 1 | -0.1 | 0.01 | -0.18 | -0.13 | inactive
